The results in this text go back to article PMC4191427, “Molecular mechanisms of two-component system RhpRS regulating type III secretion system in Pseudomonas syringae” (Nucleic Acids Research, 2014).

Series [1] relates to RhpRpsph (Pseudomonas syringae pv. phaseolicola). In words: EMSA. The following applies: 10 mM Tris-HCl pH 7.4, 50 mM KCl, 5 mM MgCl2, 10% glycerol, 3 ug/ml sheared salmon sperm DNA, room temperature; recombinant protein; residues 1-249; protein details: His-tag (HisTrap purified, LIC vector pMCSG19); label: 32P 5' end; probe letters rebuilt from the primers and the genome. In general terms: A gel shift assay detects complexes by their altered migration in electrophoresis.

The subject of a further series is RhpR. The experiment in a line: EMSA. Particulars: unphosphorylated RhpR; 10 mM Tris-HCl pH 7.4, 50 mM KCl, 5 mM MgCl2, 10% glycerol, 3 ug/ml sheared salmon sperm DNA, room temperature; recombinant protein; protein details: N-terminal His6; label: 32P 5' end; probe letters rebuilt from the primers and the genome.

In the case of “AGCAGCAGAGAGTTGAATTGCAGCATTTTCTTTGACTTTCGTCATGACACTTCCTTGTTTGCTGATTAACAGGTTAGGTACGGCGGGACTCCCCCTGTAGCGAGAGAGTCCAGTCACTCGCCTTGTGGTGCGTAATGCATTGAAGCGTAACAAAGCTGACACATTTAGAAATCTTGTGTCCAGCTCTGTTCCATGATGTCAATTAGCCCAAAACGAGGAAGTGCCCACAGGCCTTGGGGAATCGTCCGATATTATTTTTTGTGATGATCAAACGCTGATAAGTGCTTGAGCAGACGAGGACAATCT (double strand) [PSPPH3076]”, the binding result in series [1] is recorded as “binds”.

On to “ATCTGGTCAACGATCCGAAGCTCAATGCACCTGAATGTCTGACGCCATTGAGTTAGACGGGCAGGGATAAGACCGATGAATCAGACAAATCCGATATCCGCCTTGAAGCGCATCTGATACAAACTGGACATACGTGCGGGAACCATCCACCTCTCTCAAAGACCAAGATGCCAGTTGGCCGGCATCTGGCGCAGAGATCTGCCCCGCAATGGCCGTTTCACAAACAAGGAGATTCACCATGCGTCAGTCATTTGCCCTCTGTGCCTTGAGCGCTGCGTTGCTGCTCGGCGGGTGTCAGGCAGTCAATACCACCA (double strand) [PSPPH1035]”, for which the binding result in series [1] is given as “binds”.

On to “ATGGATTCAGCCAAGGCTCTGGCCAGCGTGCGTGTCAGCCTTGGCCGCTACACCACGCAGGCAGACGTCGAGCGTGCCATTGAGATATTCAGCAAGGCGCTCAGCGCACCTGCTGCGTTCTGGTAATTTGCAACGCCTCTCAAGCCGCCCTTTCAGCGGGCGGCTTGCTGCCATTTCTTCCCTTCCCGCCAAAGCTGCTGCCTTGTAGCTCGCCACTTGCAGCGTGCCGCTAAATAAAATGTACCCCTCCAGATACAAAAAGACACAAATTGGCACAGTTCTTTCAAATGGAACGGTCGTGCCATAAACCATTGGTGCACGCTGCATTCAAGGGGTGCCTACACGCACCAAAGTGCAGTTAACGGATGCCAGAGCGTCCACAAACAGTGCAGGAGGGCAGACCACAAGTCTTTCTCCTCGCCAGGAAAGGAATCTAGCCGTGCTCTATCAGTCTTGTGTCAGACCACCGTTACGCTGGCTGCTTACCCCTGAGGCATTGCCTGCCTTGGACGGTGCCTGCCCGGTCGCCTTCGCGTTATCCAGATCTGCATGTTGTTTTTCGACGGCTC (double strand) [PSPPH5053]”, for which, in series [1], the binding result is “binds”.

“CGCATGTAGCACGTGATGTTGACAGAAGTCTGATCAGCATCCGTGATCTGGCCGTACAGAGCAGCGAAGGCACCCGGCAAACACTGATTGCCAGTACCGAACTTTCGCAGTTGGCAGTCAACTTGAATGATCTTGTACTGCGCTTCAAGACATGATGCGAAACGGGATCCATAACTATCATGCATGGCGACAGGGCAGCGGATTCGTCTGCTGCACCTTTTCATAGCGCTAGTGCCATTTCTGGCAAAAAAACAATAACAAAATGCCAGCACTCGACTGCCATTAAAGTTGCATTTCATGTGTTTCATTAACGATACAAATACCTTCTATCAGGTATGATGCGCGCTACTTGAATACGGGAAGTATGAGGTATGCCGTGCAGAATCATTGTGGCCGACGACCACCCGCTGTTTCGTGAGGGCATGCTGCGTACTATCGAGCGGCTGATACCCGAAGCGATTATTGAAGAAGCAGGCAATCTGGATGAAGTACTCACCCTCGCACGCCGGGGTGATGAGGTCGACACACTGGTG (double strand) [PSPPH4241]”: the binding result in series [1] is recorded as “binds”.

Take “CTCCGAGCAGCTCTAGCATTTGTACGTCATCTAGGCGATATGAGCGCTGCAAGATTATTTCGCGAGCGCAGGTAAACACCTCCAGCGAAACAACTCCTTGAAATGCGCCGTCGCAGCGAACCCACTTGTCGGGTGGATTGCGACTGATACGTTTGCGCAGCTTGGAGGATGTTTTGTTGTAGACATTGTTGCCAATATATTTCTCGTTGGTCAGCACTTGGTGGACGCTGCCCCTGCTCCAAGGACGGTCGAAGTCGGTGAGCAGGCCATCTGCATTTAGTACGTTGGCAATCTCACGCTCGTTCAGTCC (double strand) [PSPPH0100]”: in series [1], the binding result is “binds”.

As for “CTTCCCTACGTGTCCCTGTTATGTCTTGTTGCGCGTCCTGCGCTACGTCCATGAACAAAGATTAACTTTGGATCCCTTTCTTGGGAAGAGGTCAATTGGCACCACGCAGTGTAAGCAAATGCTTACAAGGCTTTTGCAGGTCAGAATTGTGACGCCTTCAACAGGTACAGCGAATCGCTGCCCGCGCGCACCGAGGCGTCCAGCGAGTGAATACGCGGCAGCAGACGTGCGAAGTAGAAGCGTGCAGTACCCATCTTGCTTGCGTAGAACTCCTCCTGCTGCTCTTTACCGAGTGCTGCCTTGGCCATCATGGCCCACATGTAGGCATACGCCGTGTAACCGAACAGATGCAGATATTCCACAGAGGCTGCGCCGATTTCATTGGGATTACCGCGCGAGCGGTCCAGCACCCAGCCAGTCAGCTCATCCAGCATG (double strand) [PSPPH4712]”, the binding result in series [1] is “binds”.

For “GCTTCCCGGTCATTGGTATCGATTATTACTTCACGCATATGCGGCTTACGTCCGTGTTTGACTATCGCTGATATTGTTGTGGCGTGAATTTGTAACAATCACTGGCCAAGGCTCGACTGGCAAGCGCTTGTGTCCTGTGTGATACATAGTTGTAGGTCAATTCGCCATGGCCTGCAATTAGACCGACGTCTGACCTCTGTTTGATTTGATAAATTGACGACTGGACCTGCAAATCCGGATTTCTTTTTCCCGGAAACGCAAAACCCCCGGCAGGCCGGGGGTTTTGTTGACTCGCTGGTGCGATTACTCGTCGAGGAACGAGCGCAGGTGCTCGCTTCTTGTCGGGTGACGCAGCTTGCGCAGTGCCTTGGCTTCTATCTGACGAATCCGCTCGCGGGTAACGTCAAACTGCTTACCGACCTCTTCAAGCGTGTGATCGGTATTCATGTCGATGCCGAAA (double strand) [rpoD]”, the binding result in series [1] is on record as “binds”.

As to “GCTTGCATAGTGCGTCTGTCGCCTGCGTGTGCCGCCGTTGTCTGGCCGCTGTTGAAGATCAACGCTGCCGCTCATGCTACTTCGCCGTGAGGCTCGGCGGTAGGGTGACGCTGGCCGATGTCAGGCGGATGTCGTGAATGTATCGATACGGATACATAGAGATGAGTGAACGAACCACGACGCTTACGCCTTAAAACGAAGATTGTCTAGCTAGCACTTCTACCAGTATCGCGGTGCCCTGATTAAGCCTTAGGTTGCTAGCTAGCATGACGGAAACCCGTGATCTCTCCGGTTTCGGCTGGCTTAAACGTCCGGTGAGCGGTTGCGGTTGCGGTTGCGCCTGTTGCCGCCAGGGCTTGATGGCGGCTGATCGTTATGGAGAACGACAAATGGACTTGCACGAA (double strand) [rhpR promoter EMSA probe]”, the binding result in the series on RhpR was “binds”.

As for “TCACACTGACCGGGTAATCCCTGGCATTGCTGGTGCGCAAGGCAGCCAGCACCACTCGACTGATGGCGTCAGCGTCTGCTCTCCGTGCGGGTCGAACCTTGATGTCCATTTTTCGTACCTGGGCAGATAAACCGCACATGAAGAGCACAGTGAAAGCCGGCTTCGTTGATACCGAGCCATGACCGTTTTGCTGATGTGTAACCAAACGACGAATGGCATTCTTTGTAACACTCTGCATACAAATGAGCAGGCCCTTTATCTTATGGGGCTGCGCGACCGATAGCGCTTAAAAAGTAGCCGTCTGCGGCCGATCAACCTGTACCTCGCCTG (double strand) [PSPPH4247]”, the binding result in series [1] was “binds”.

Consider “TGCCGGCATAGAGCAGATTGCAGCCCGCCGCCAAAGCATCGTGTCCGGTCAGAAGTCCGTGGAAGCCAACCAGGTTGGCGTAGATGTGGGGTCGCGCAATATCGCTGACGTGCTCAATGCCCAGCGTCAGTTGTACGCGGCCGTTCGCGATTACAACGATGCTCGCTATGACTACATCCTCGACAACCTCAAGCTCAAACAGGCTGCCGGCACGCTGAGCCCTGACGATCTTAGAGCACTGGCGGCCTATCTAAAGCAGGACTACGACCCGGCCAGGGACTTTCTACCGCCGGGTGTTTAGATGAATTTTTAGATTGCATAGCTGAATAGTTTCAATCCGGATACATTAAGTTTTAAAAGTGTGATGTGCGTCACAGATGGCTTGTTGCCATTATTTGGCAAAATGATCAGATTTGCCTACCAGTGGCATGTCGGCAGGGAAGCGCTATGAATGATTCGGAAATGGGCGCTCAGACGCCTGACAATGTCCCTCGCCTCGAC (double strand) [PSPPH0813]”, for which, in series [1], the binding result is given as “binds”.

Take “TGCGAACAACGCTATTTTTGCTACTCGACTCAACATCCGGATTCACTCTCTCCACAGGCAATTGATTAATAACCTGCACAGTCAGACAGCGCGGTGCCGGGGAAGTGGGTAGCGATCTGGTCGCCAACGTGTAAGCGCTACGATACAAAACGCATAACGCCCGGTTGATTTGCAGCGCTGCCGTGCACCCGCACTCTTGCGTAAGTTACTATGTGCGCCGTCGGCGACGGGCCTGCCCTCGCACCCATCGAAACCCACACGGAAACACACCCCTGTGACACTGGAACAGAATTACACCGCCA (double strand) [folE]”: in series [1], the binding result is recorded as “binds”.
